Results of unrelated studies side by side (data: NIAID ChemDB).

All rows: tests in culture; organism: HIV-1; method: p24; read-out: EC50

Blank or dashed fields: not listed here.

SMILES | cell line | mutations | strain or isolate | value
C#CCN1CCNC(=O)c2sc3ccc([N+](=O)[O-])cc3c21 | OM-10.1 |  |  | 0.2 µM
CC(C)CN(C[C@@H](O)CCN(CC1CCCC1)S(=O)(=O)c1ccc(O)cc1)S(=O)(=O)c1ccc(O)cc1 | CEM |  | IIIB | <0.1 µM
CC(C)CN(C[C@@H](O)[C@H](Cc1ccccc1)NC(=O)OCC1CCOC1)S(=O)(=O)c1ccc(Cl)c(Cl)c1 | CEM |  | IIIB | <10 µM
Cc1ccc(-c2ccc3c(c2)C=C(C(=O)Nc2ccc(C[N+](C)(C)C4CCOCC4)cc2)CCC3)cc1 | PBMC |  | TB10 CLADE C | <1 µM
CC(C)n1c(=O)c(O)c2n(c1=O)CCN(Cc1cccc3ccccc13)C2=O | MT-4 |  |  | <10 µM
COC(=O)N[C@@H](Cc1ccccc1)[C@H](O)CN(CC(C)C)S(=O)(=O)c1ccc(Cl)c(Cl)c1 | CEM |  | IIIB | <10 µM
O=C(O)c1cc(-n2cccc2)ccc1Cl | PBMC + MT-2 |  | BCF02 R5 GROUP O | 5.9 µM
C=C(C)CN1CCn2cnnc2-c2sc3ccc([N+](=O)[O-])cc3c21 | OM-10.1 |  |  | 0.4 µM
CC(C)CN(C[C@@H](O)[C@H](Cc1ccccc1)NC(=O)O[C@@H]1CCOC1)S(=O)(=O)c1cc(Cl)c(Cl)s1 | CEM |  | IIIB | <10 µM
O=C(N[C@@H](Cc1ccccc1)C(=O)C(F)(F)N(Cc1ccccc1)S(=O)(=O)c1ccccc1)O[C@H]1CCOC1 | CEM |  | IIIB | <1 µM
Cc1cn([C@H]2C=C[C@@H](CO)O2)c(=O)[nH]c1=O | MT-4 | RT-M41L D67N K70R T215Y K219Q | XM-AZT-resistant | <0.7 µM
CC(C)NC(=O)N(C)CCC1CN(Cc2ccc(F)cc2)C(=O)c2c(O)c(=O)n(C(C)C)c(=O)n21 | MT-4 |  |  | <10 µM
COc1ccc2c(c1)C1=C(CC2)C(=O)NCCN1Cc1ccccc1C | OM-10.1 |  |  | 0.4 µM
NC(=O)C[C@H](NC(=O)c1ccc2ccccc2n1)C(=O)N[C@@H](Cc1ccccc1)[C@H](O)CN(Cc1ccccc1)S(=O)(=O)c1cccc(C(F)(F)F)c1 | CEM |  | IIIB | <10 µM
COc1ccc2c(c1)C1=C(CC2)C(=O)N[C@H]2CCCC[C@@H]2N1 | OM-10.1 |  |  | 5.3 µM
CC(C)CN(C[C@@H](O)[C@H](Cc1ccccc1)NC(=O)O[C@@H]1CCOC1)S(=O)(=O)c1ccc(F)cc1 | CEM |  | IIIB | <1 µM
COc1ccc(S(=O)(=O)N(CC(C)C)C[C@@H](O)CCN(CC2CCCC2)S(=O)(=O)C2CS(=O)(=O)CC2O)cc1 | CEM |  | IIIB | <1 µM
COc1ccc(S(=O)(=O)N(CC2CCCC2)C[C@@H](O)[C@H](Cc2ccccc2)NC(=O)O[C@@H]2CCOC2)cc1 | CEM |  | IIIB | <0.1 µM
O=C1NCCN(Cc2ccccc2F)c2c1oc1ccc(Br)cc21 | OM-10.1 |  |  | <0.002 µM
Nc1nc(NC2CC2)c2ncn([C@H]3C=C[C@@H](CO)C3)c2n1 | MT-4 | RT-A62V V75I F77C F116Y Q151M | XM-Q151M | <4.6 µM
O=C1c2c(O)c(=O)n(C3CCOC3)c(=O)n2CCN1Cc1ccc(F)cc1 | MT-4 |  |  | <10 µM
Nc1ccc(S(=O)(=O)N(CC[C@H](O)CN(CC2CCCC2)S(=O)(=O)c2ccc(N)cc2)CC2CCCC2)cc1 | CEM |  | IIIB | <1 µM
CC1(C)Oc2ccc3ccc(=O)oc3c2[C@@H](OC(=O)C23CCC(C)(C(=O)O2)C3(C)C)[C@H]1OC(=O)C12CCC(C)(C(=O)O1)C2(C)C | MT-4 |  | NL4-3 | 0.1 µM
CC(=O)N1CCC(C(=O)N(CCCN2CCC(Cc3ccc(C(N)=O)cc3)CC2)c2ccc(C)c(Cl)c2)CC1 | PBMC |  | HKW Clinical isolates | 0.0017 µM
C=C(Cl)CN1CCNC(=O)c2sc3ccc(OC)cc3c21 | OM-10.1 |  |  | <0.08 µM
CC(=O)N1CCCC(n2c(=O)c(O)c3n(c2=O)CCN(Cc2ccc(F)cc2)C3=O)C1 | MT-4 |  |  | <10 µM
O=C(c1ccccc1)N(CCc1ccccc1)C[C@H](O)CN(CC1CCCC1)S(=O)(=O)C1CCS(=O)(=O)CC1 | CEM |  | IIIB | <1 µM
CC(C)CN(C[C@@H](O)[C@H](Cc1ccccc1)NC(=O)O[C@H]1CO[C@H]2OCC[C@H]21)S(=O)(=O)c1ccc2c(c1)OCO2 | PHA-PBM |  | 92TH019 | 0.0003 µM
CC[C@H](C)[C@H](NC(=O)OCc1ccccc1)C(=O)N[C@@H](Cc1ccccc1)[C@H](O)CN(CC(C)C)S(=O)(=O)c1ccc(F)c(NC(C)=O)c1 | CEM |  | IIIB | <1 µM
CCO[C@@H]1Cc2cc(C(F)(F)F)ccc2C1N1CCN(C2(C)CCN(C(=O)c3c(C)ncnc3C)CC2)C[C@@H]1C | PBMC |  | ADA | 0.0005 µM
COc1cccc(CN2CCNC(=O)c3sc4ccc(OC)cc4c32)c1 | OM-10.1 |  |  | <0.08 µM
O=S(=O)(c1ccccc1)c1cscc1NCC(O)CN(CC1CCCC1)S(=O)(=O)c1ccccc1 | CEM |  | IIIB | <1 µM
COc1ccc2ccc3c(c2c1)OC[C@@H](C)NC3=O | OM-10.1 |  |  | 0.09 µM
O=C1c2c(O)c(=O)n(Cc3cscn3)c(=O)n2CCN1Cc1ccc(F)cc1 | MT-4 |  |  | <10 µM
C=C(C)CN(C[C@@H](O)[C@H](Cc1ccccc1)NC(=O)O[C@@H]1CCOC1)S(=O)(=O)c1ccc(F)cc1 | CEM |  | IIIB | <10 µM
CC(C)[C@H](NC(=O)OCc1ccccn1)C(=O)N[C@@H](Cc1ccccc1)[C@@H](O)C[C@H](Cc1ccccc1)NC(=O)OCc1cccnc1 | MT-4 | PR-L10R M46I | NL4-3 | <0.8 µM
O=C(N[C@@H](Cc1ccccc1)[C@H](O)CN(CC1CCCC1)S(=O)(=O)c1ccc(F)cc1)OCc1cccnc1 | CEM |  | IIIB | <10 µM
Clc1cc(CN2CCCNCCNCCCNCC2)cc(Cl)n1 | MT-4 |  | NL4-3 X4 | 1.8 µM

A second listing of 5 rows from above:

SMILES | cell line | mutations | strain or isolate | value
O=C1NCCN(Cc2ccccc2F)c2c1oc1ccc(Br)cc21 | OM-10.1 |  |  | <0.002 µM
CC(C)n1c(=O)c(O)c2n(c1=O)CCN(Cc1cccc3ccccc13)C2=O | MT-4 |  |  | <10 µM
CC(C)CN(C[C@@H](O)CCN(CC1CCCC1)S(=O)(=O)c1ccc(O)cc1)S(=O)(=O)c1ccc(O)cc1 | CEM |  | IIIB | <0.1 µM
CC1(C)Oc2ccc3ccc(=O)oc3c2[C@@H](OC(=O)C23CCC(C)(C(=O)O2)C3(C)C)[C@H]1OC(=O)C12CCC(C)(C(=O)O1)C2(C)C | MT-4 |  | NL4-3 | 0.1 µM
O=C(N[C@@H](Cc1ccccc1)C(=O)C(F)(F)N(Cc1ccccc1)S(=O)(=O)c1ccccc1)O[C@H]1CCOC1 | CEM |  | IIIB | <1 µM

ECn is the concentration giving n% inhibition of infection, replication or growth. Conditions beyond the fields shown may differ between rows.